Fold change is the IC50 on the isolate divided by the IC50 on a reference virus; 1 = unchanged, higher = more resistant. Changes are given against the subtype B consensus. No active / inactive call. The values were gathered from many studies (numbered anew) with different assays, which the source does not name. Most viruses are clinical isolates; some are laboratory strains or clones with known resistance changes. Isolates with mixed residues are left out; stretches that were not sequenced show no change. Round top values that many isolates share are read here as limits; other very high values and 0.1 may be limits too.
Experiments:
Test in all cases: fold change of IC50 against reference virus; higher = more resistant
delavirdine = compound: CC(C)Nc1cccnc1N1CCN(C(=O)c2cc3cc(NS(C)(=O)=O)ccc3[nH]2)CC1 [delavirdine]
Protocol: (§1)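 Cell-culture drug susceptibility tests of virus bearing the reverse transcriptase of each isolate, gathered from many studies.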

tenofovir = compound: C[C@H](Cn1cnc2c(N)ncnc21)OCP(=O)(O)O [tenofovir]
Protocol: as §1

nevirapine = compound: Cc1ccnc2c1NC(=O)c1cccnc1N2C1CC1 [nevirapine]
Protocol: as §1

stavudine = compound: Cc1cn([C@H]2C=C[C@@H](CO)O2)c(=O)[nH]c1=O [stavudine]
Protocol: as §1

zidovudine = compound: Cc1cn([C@H]2C[C@H](N=[N+]=[N-])[C@@H](CO)O2)c(=O)[nH]c1=O [zidovudine]
Protocol: as §1

abacavir = compound: Nc1nc(NC2CC2)c2ncn([C@H]3C=C[C@@H](CO)C3)c2n1 [abacavir]
Protocol: as §1

efavirenz = compound: O=C1Nc2ccc(Cl)cc2[C@@](C#CC2CC2)(C(F)(F)F)O1 [efavirenz]
Protocol: as §1

didanosine = compound: O=c1[nH]cnc2c1ncn2[C@H]1CC[C@@H](CO)O1 [didanosine]
Protocol: as §1

| Test System | fold change of IC50 against reference virus (delavirdine) | fold change of IC50 against reference virus (tenofovir) | fold change of IC50 against reference virus (nevirapine) | fold change of IC50 against reference virus (stavudine) | fold change of IC50 against reference virus (zidovudine) | fold change of IC50 against reference virus (abacavir) | fold change of IC50 against reference virus (efavirenz) | fold change of IC50 against reference virus (didanosine) |
| --- | --- | --- | --- | --- | --- | --- | --- | --- |
| HIV-1 isolate 1580 (reverse transcriptase changes: A98S K102Q G196E V245K I293V, study 15) | 1 | 0.9 | 1.7 | 0.9 | 1.1 | 1.1 | 1.3 | 1.1 |
| HIV-1 isolate 728 (reverse transcriptase changes: V75I F77L K102Q F116Y Q151M S162C K277R, study 108) | 2 | 4 | 2 | 14.4 | 123 | 15 | 1 | 200 |
| HIV-1 isolate 1105 (reverse transcriptase changes: P1L V35I S48T V60I D67N K70R D121H K122E K166R D177E G196E I202V T215F K219E, study 15) | 0.5 | 1.5 | 0.3 | 1.8 | 51 | 1.7 | 0.5 | 1.2 |
| HIV-1 isolate 487 (reverse transcriptase changes: K102Q S162C K277R, study 108) | 1 | 1 | 1 | 1 | 1 | 1 | 1 | 1 |
| HIV-1 isolate 456 (reverse transcriptase changes: V35T T39L K43N T69N K102Q K122E I142V S162C I178L T200E Q207E E224D V245L A272P I293V, study 15) | 0.5 | 0.8 | 0.7 | 1 | 0.6 | 1.2 | 0.5 | 1.1 |
| HIV-1 isolate 792 (reverse transcriptase changes: M41L V60I V118I D121Y K122E I135M M184V L210W T215Y V245R A272P, study 15) | 0.4 | 2.3 | 0.9 | 2.6 | 29 | 7.2 | 0.6 | 1.8 |
| HIV-1 isolate 1478 (reverse transcriptase changes: K49R D67G K70E K103N T128A I135M M184V T200A E204D R211K K219R A272P V276I K281R T286A E297K, study 15) | 95 | 0.6 | 85 | 0.8 | 0.3 | 3 | 23 | 1.5 |
| HIV-1 isolate 96 (reverse transcriptase changes: V35T K49R K65R A98G K101E K122E A158S E169D V179D G190A R211A V245M, study 134) | 5.9 | 3.8 | 893 | 1.9 | 0.7 | 3.6 | 1500 | 3 |
| HIV-1 isolate 972 (reverse transcriptase changes: T39A S68G K103N D123E I135T D177E T200A R211K, study 15) | ≥ 250 | 0.9 | 196 | 1 | 1.5 | 0.9 | 73 | 1 |
| HIV-1 isolate 681 (reverse transcriptase changes: K65N L100I K103N Y115F, study 92) | 177 | 2.6 | 118 |  |  | 7.4 | 294 | 1.5 |
| HIV-1 isolate 783 (reverse transcriptase changes: T39A K65R R83K K122E K166R D177E I178M M184V Q207K R211K D237E V245E, study 15) | 0.4 | 0.9 | 0.5 | 1 | 0.2 | 7.9 | 0.3 | 3.1 |
| HIV-1 isolate 41 (reverse transcriptase changes: R83K Q207E R211K T215Y T286A, study 100) | 0.5 | 1.4 | 0.6 | 1.4 | 15 | 1.5 | 0.5 | 0.9 |
| HIV-1 isolate 1598 (reverse transcriptase changes: K122E Q145E F214L A272P K277R M357T A376T A400T N447S D460N S468T S519N, study 97) |  | 1 | 0.7 | 1.4 | 1.5 | 0.6 | 0.4 | 1 |
| HIV-1 isolate 247 (reverse transcriptase changes: K122E Q145C F214L A272P K277R M357T A376T A400T N447S D460N S468T S519N, study 97) |  | 1 | 0.7 | 1.1 | 0.8 | 0.7 | 1.5 | 1 |
| HIV-1 isolate 376 (reverse transcriptase changes: S162C I178M M184I G196K R211K A272P Q278H K281R T286A T296S, study 15) | 1 | 0.5 | 0.6 | 0.9 | 0.3 | 1.6 | 0.6 | 1 |
| HIV-1 isolate 460 (reverse transcriptase changes: E28A K64R K70R L74I V90I K102R K103N Y115F D123E S162A E169D M184V R199A D218E F227L T240A Y271P V276K C280R T290D V292I, study 15) | 200 | 0.6 | 200 | 0.8 | 0.7 | 10 | 200 | 1.9 |
| HIV-1 isolate 1493 (reverse transcriptase changes: K65N L100I K103N, study 92) | 177 | 1.7 | 47 |  |  | 2.1 | 294 | 1.4 |
| HIV-1 isolate 1347 (reverse transcriptase changes: K122E Q145M F214L A272P K277R M357T A376T A400T N447S D460N S468T S519N, study 97) |  | 2560 | 114 | 17.7 | 50 | 12 | 150 | 19.4 |
| HIV-1 isolate 618 (reverse transcriptase changes: V21I S162C Q207E A272P K277R, study 100) | 0.5 | 1 | 0.4 | 1 | 0.5 | 0.7 | 0.4 | 0.9 |
| HIV-1 isolate 213 (reverse transcriptase changes: V35I D67N K70R R83K V90I D123E Y181C G196E R211K T215I K219E L228R V245M A272P K275R Q278H V292I I293V E297Q K311R, study 15) | 99 | 1 | 106 | 1.6 | 5.2 | 0.5 | 1 | 2 |
| HIV-1 isolate 107 (reverse transcriptase changes: V35T K49R K65R A98G K101E K122E A158S E169D Y181C G190A R211A V245M K277R T286A A288S E297A, study 15) | 800 | 3 | 893 | 1.9 | 0.6 | 3.9 | 1500 | 2.3 |
| HIV-1 isolate 1474 (reverse transcriptase changes: K102Q S162C K277R I293V R358K V435I S468P K550G, study 145) | 0.5 | 0.9 | 0.5 | 0.9 | 0.7 | 0.8 | 0.6 | 0.9 |
| HIV-1 isolate 731 (reverse transcriptase changes: K20R T69N K70R A98S K103N I142V V245K I293V, study 15) | ≥ 250 | 1.4 | 219 | 0.8 | 7.5 | 0.9 | 72 | 0.9 |
| HIV-1 isolate 940 (reverse transcriptase changes: K122E S162C K173Q, study 15) | 1.2 | 0.8 | 0.7 | 1 | 0.6 | 0.9 | 0.9 | 0.9 |
| HIV-1 isolate 676 (reverse transcriptase changes: K65R L100I K103N I244V V245M D250E A272P K281R T286A E297K, study 15) | 800 | 1.5 | 46 | 1.1 |  | 1.9 | 1500 | 1.5 |
| HIV-1 isolate 810 (reverse transcriptase changes: K122E Q145L F214L A272P K277R M357T A376T A400T N447S D460N S468T S519N, study 97) |  | 375 | 114 | 17.7 | 50 | 12 | 150 | 19.4 |

From the supplement of paper PMC3578754
